Paper PMC9138599, “Clade-Specific Alterations within the HIV-1 Capsid Protein with Implications for Nuclear Translocation” (Biomolecules, 2022)

Biological target: HIV-1 CA hexamer from clade B (NL4-3) (Human immunodeficiency virus type 1 group M subtype B, UniProt P12493, A146C/E177C/M317A/W316A)
Test: SPR binding to immobilized HIV-1 CA hexamer, clade B
Conditions: clade B (NL4.3) hexamer

Work on PF-74 yielded a Kd (Langmuir isotherm equilibrium fit, 25 °C, n = 3, read-out: KD Equilibrium) of 47 nM and a Kd (global fit, n = 3, read-out: KD Kinetic/Global) of 47.9 nM.

Like-named read-outs stand apart in the source and are kept apart here.
